The experiment deals with T1, Kaposi's sarcoma-associated herpesvirus latency-associated nuclear antigen 2 (LANA2) (Kaposi's sarcoma-associated herpesvirus …).
T1 construct: also called protein encoded by ORFK10.5; K10.5
As to the kind of experiment: GST pull-down with in vitro translated 35S-methionine-labeled LANA2.

B1: GST protein alone (other, UniProt P08515 1-218, looked up)
chain: MSPILGYWKIKGLVQPTRLLLEYLEEKYEEHLYERDEGDKWRNKKFELGLEFPNLPYYIDGDVKLTQSMAIIRYIADKHNMLGGCPKERAEISMLEGAVLDIRYGVSRIAYSKDFETLKVDFLSKLPEMLKMFEDRLCHKTYLNGDHVTHPDFMLYDALDVVLYMDPMCLDAFPKLVCFKKRIEAIPQIDKYLKSSKYIAWPLQGWQATFGGGDHPPK
notes: also called GST alone; glutathione-S-transferase
Regarding B1, the binding result was “no binding”.

Source of the values: patent publication US6866854 (TRUSTEES OF COLUMBIA UNIVERSITY IN THE CITY OF NEW YORK, dated 2005).
